Anti-infective test results gathered from many reports (values: NIAID ChemDB through PubChem).

Common to all: growth or infection tests; species: HIV-1; method: p24 / ELISA; endpoint: EC50

Lines come from different laboratories, so protocols vary.

CC1CNCCN1S(=O)(=O)c1cccc2cnccc12 ; cell line: MOLT-4/HIV-1 + MOLT-4 ; value: 60 µM
Cc1cc(C)nc(N2C(=O)CSC2c2c(Cl)cccc2[N+](=O)[O-])c1 ; cell line: PBMC ; strain: VB51 ; value: 0.004 µg/mL
N#CC[C@H](C1CCCC1)n1cc(-c2ncnc3[nH]ccc23)cn1 ; cell line: Primary T lymphocytes ; strain: LAI ; value: 0.3 µM
CCCCCCCCCc1ccc(OCCOCCOCCOCCOCCOCCOCCOCCOCCO)cc1 ; cell line: MT-4 ; strain: IIIB ; value: 0.01 µg/mL
COc1ccc(-c2cncc3sc(C(N)=O)cc23)cc1 ; cell line: 293T ; value: 0.115 µM
C[C@H](Cn1cnc2c(N)ncnc21)OCP(=O)(O)O ; strain: DJ259 ; value: 0.95 µM
CCN(c1nc(F)ccc1NC(C)(C)C)C1CCN(C(=O)c2cc3cc(NC(=O)N4CCN(C)CC4)ccc3[nH]2)CC1 ; cell line: MT-2 ; strain: IIIB ; mutations: M200I ; value: 0.0261 µM
NC(=O)c1sc2cncc(N3CCCCC3)c2c1N ; cell line: 293T ; value: 0.68 µM
Cc1cn([C@H]2C[C@H](N=[N+]=[N-])[C@@H](CO)O2)c(=O)[nH]c1=O ; cell line: U-937 ; strain: LAV ; value: 0.03 µg/mL
CCO[C@H]1C[C@H](n2cc(C)c(=O)[nH]c2=O)O[C@@H]1CO ; cell line: C8166 ; strain: RF ; value: 100 µM
N#CC[C@H](C1CCCC1)n1cc(-c2ncnc3[nH]ccc23)cn1 ; setting: inside macrophages ; cell line: Macrophage ; strain: BaL ; value: 0.3 µM
CC(C)CN(C[C@@H](O)[C@H](Cc1ccccc1)NC(=O)O[C@H]1CCOC1)S(=O)(=O)c1ccc(N)cc1 ; cell line: MT-2 ; strain: IIIB ; mutations: K112M K113E V128I ; value: 0.0473 µM
Cc1cn([C@H]2C[C@H](N=[N+]=[N-])[C@@H](CO)O2)c(=O)[nH]c1=O ; cell line: H9 ; value: >50 µM
O=c1c(O)c(-c2ccc(O)c(O)c2)oc2cc(O)cc(O)c12 ; cell line: MT-4 ; strain: NL4-3 ; value: >20 µg/mL
Cc1cn([C@H]2C[C@H](N=[N+]=[N-])[C@@H](CO)O2)c(=O)[nH]c1=O ; cell line: H9 ; value: <25 µg/mL
Cc1cn([C@H]2C[C@H](N=[N+]=[N-])[C@@H](CO)O2)c(=O)[nH]c1=O ; cell line: Primary T lymphocytes ; mutations: M184V ; value: 0.01 µM
C1CNCCNCCCN(CCCN2CCCNCCNCCCNCC2)CCNC1 ; cell line: MT-4 ; strain: clinical isolate A012D AZT-resistant ; value: 0.25 µM
Cc1cn([C@H]2C[C@H](N=[N+]=[N-])[C@@H](CO)O2)c(=O)[nH]c1=O ; cell line: Monocytes + Monocyte ; strain: D747 ; value: 0.0012 µg/mL
C=C(C)[C@]12C[C@@H](COC(=O)c3ccccc3)[C@@]34O[C@]5(O[C@@H]1[C@@H]3[C@@H]1O[C@]1(CO)[C@@H](O)[C@@]1(O)[C@H]4[C@H]([C@H](C)[C@@H]1OC(=O)c1ccccc1)[C@H](C)CCCCCC[C@H]5O)O2 ; cell line: PBMC ; strain: YU2 ; value: 0.0000045 µM
NC(=O)c1sc2cncc(-c3ccc4c(c3)OCO4)c2c1N ; cell line: U1 ; value: 0.277 µM
Cc1cc(=O)c2ccc(N=C=S)cc2o1 ; cell line: U-937 ; strain: NL4-3 ; value: 0.17 µM
NC(=O)c1cc2c(-c3ccc4c(c3)CCO4)cncc2s1 ; cell line: PBMC ; strain: 93BR021 ; value: 0.0488 µM
Cc1cn([C@H]2C[C@H](F)[C@@H](CO)O2)c(=O)[nH]c1=O ; cell line: MT-4 ; strain: 121-2(PRE-AZT) ; value: 0.007 µM
CCOP(=O)(COc1ccc(C[C@H](NC(=O)O[C@H]2CO[C@H]3OCC[C@H]32)[C@H](O)CN(CC(C)C)S(=O)(=O)c2ccc(OC)cc2)cc1)OCC ; cell line: MT-2 ; strain: IIIB ; mutations: I401T R409K D437N ; value: 0.008 µM
O=c1cc(-c2ccc(O)cc2)oc2cc(O)cc(O)c12 ; cell line: MT-4 ; strain: NL4-3 ; value: 12.8 µg/mL
O=C1c2ccccc2C2(c3ccccc3)SCCN12 ; cell line: Macrophage + Monocytes/macrophages ; strain: D79 ; value: 0.083 µM
Nc1ccn([C@@H]2O[C@H](CO)C[C@@H]2F)c(=O)n1 ; cell line: CEM ; strain: LAV ; value: 0.9 µg/mL
COc1ccc(Cl)cc1NC(=O)[C@H]1C[C@H](CCC(N)=O)N[C@]12C(=O)Nc1ccc(C)cc12 ; setting: 10% FBS ; cell line: Primary macrophages ; strain: pNF462 ; value: >10 µM
CC(=O)O[C@@]12C[C@@H](C)[C@@]3(O)[C@@H](C=C(CO)C[C@]4(O)C(=O)C(C)=C[C@@H]34)[C@@H]1C2(C)C ; cell line: C8166 ; strain: RF ; mutations: PI-resistant (V82F I84V) ; value: 4.069 µM
CS(=O)(=O)O[C@H]1C[C@H](n2ccc(=O)[nH]c2=O)O[C@@H]1COP(=O)(OCC(Cl)(Cl)Cl)OCC(Cl)(Cl)Cl ; cell line: MT-2 ; strain: RF ; value: 200 µM
CCc1c(CC2CCCCC2)nc(SCC(=O)c2ccccc2)[nH]c1=O ; cell line: C8166 ; strain: IIIB ; mutations: DB-02 ; value: 274 µM
CCOC(=O)c1ccc(NC(=O)[C@@]2(C)C[C@H](C(C)C)N[C@]23C(=O)Nc2ccc(C)cc23)cc1 ; setting: 10% FBS ; cell line: Primary macrophages ; strain: pNF462 ; value: 5.5 µM
CC(=O)O[C@H]1C[C@H](n2ccc(=O)[nH]c2=O)O[C@@H]1COP(=O)(OCC(Cl)(Cl)Cl)OCC(Cl)(Cl)Cl ; cell line: MT-2 ; strain: RF ; value: >200 µM
Cc1ccnc2c1NC(=O)c1cccnc1N2C1CC1 ; cell line: PBMC ; strain: D148/86 ; value: 0.422 µM
CCCCCC/C=C\C/C=C\CCCCCCC(=O)O[C@H](COC(=O)CCCCCCCCCCCCCCC)COP(=O)([O-])OCC[NH3+] ; cell line: MOLT-4 ; value: 20 µM
Cc1noc(C2CCCN(c3cncc4sc(C(N)=O)c(N)c34)C2)n1 ; cell line: U1 ; value: 1.087 µM
CC(C)n1nc(-c2ccc3oc(N)nc3c2)c2c(N)ncnc21 ; cell line: PBL ; strain: HXB2 ; value: 0.038 µM
C[C@@H]1[C@H](O)[C@@H](C)/C=C/C=C/CC/C=C/C=C/C=C/C=C/C(O[C@H]2O[C@H](C)[C@@H](O)[C@H](N)[C@@H]2O)CC2O[C@](O)(CC(O)C(O)CCC(O)CC(O)CC(O)CC(=O)O[C@H]1C)CC(O)C2C(=O)O ; cell line: H9 ; value: 4 µg/mL
Cc1cn([C@H]2C=C[C@@H](CO)O2)c(=O)[nH]c1=O ; cell line: Primary T lymphocytes ; mutations: 4xAZT ; value: 27.8 µM
Cc1cn([C@H]2C[C@H](N=[N+]=[N-])[C@@H](CO)O2)c(=O)[nH]c1=O ; cell line: TZM-bl ; strain: TRO.11 ; value: 0.06092 µM
Cc1cn([C@H]2C[C@H](OS(C)(=O)=O)[C@@H](COP(=O)(OCC(Cl)(Cl)Cl)OCC(Cl)(Cl)Cl)O2)c(=O)[nH]c1=O ; cell line: MT-2 ; strain: RF ; value: 45 µM
COc1cc(OC)nc(N2C(=O)CSC2c2c(Cl)cccc2Cl)n1 ; cell line: PBMC ; strain: VB51 ; value: 0.003 µg/mL
COc1ccc(-c2cncc3sc(C(N)=O)c(N)c23)cc1 ; cell line: U1 ; value: 0.057 µM

Repeating the first 4 entries:

CC1CNCCN1S(=O)(=O)c1cccc2cnccc12 ; cell line: MOLT-4/HIV-1 + MOLT-4 ; value: 60 µM
Cc1cc(C)nc(N2C(=O)CSC2c2c(Cl)cccc2[N+](=O)[O-])c1 ; cell line: PBMC ; strain: VB51 ; value: 0.004 µg/mL
N#CC[C@H](C1CCCC1)n1cc(-c2ncnc3[nH]ccc23)cn1 ; cell line: Primary T lymphocytes ; strain: LAI ; value: 0.3 µM
CCCCCCCCCc1ccc(OCCOCCOCCOCCOCCOCCOCCOCCOCCO)cc1 ; cell line: MT-4 ; strain: IIIB ; value: 0.01 µg/mL

ECn: concentration that inhibits the pathogen or its effect by n%.